Measured data: PubChem BioAssay AID504761 (Drosophila RNAi Screening Center, 2011)
The deposit covers about 22,000 reagents; this is an unselected part of those with a known target gene and a result. In the full data, 116 (0.52%) are marked active. 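Calls depend on retest data that are not deposited; infection was ranked per plate without normalising between plates; the unit of the infection score is not given.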 The raw values are shown without normalisation. Names joined by + are all predicted targets of the reagent. Further read-outs or replicates are left out here. Not stated in the record: the amount of reagent, the time to read-out.

Aim: 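Fly genes whose silencing reduces dengue virus type 2 infection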 (primary screen)
Cell system: D.Mel-2 cells from Drosophila
Reagent: long dsRNA against Drosophila genes
Challenge: infection with dengue virus type 2; dose and infection time not stated
Detection: 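Per well on two replicate plates, imaging gave the percent of cells positive for viral envelope protein, ranked by infection, and a nuclear count of cells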
Reading the numbers: infection score: higher = more virus-infected cells; cell count: higher = more cells in the well
Call rule: 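Low infection ranks in the two replicates (chance level up to 0.065) followed by a retest with a 1.5-fold or larger significant decrease, p below 0.05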
Meaning of the calls: active = confirmed: knock-down lowers infection; inactive = not picked or not confirmed

target gene | dsRNA | infection score, replicate 1 | infection score, replicate 2 | cell count, replicate 1 | Outcome
CG33964 + CG13175 | DRSC06300 | 14.9 | 11.2 | 5464 | inactive
CG33964 + CG13175 | DRSC06301 | 14 | 4.07 | 5564 | inactive
CG33964 + CG13175 | DRSC07184 | 7.15 | 9.37 | 6212 | inactive
CG33523 | DRSC09814 | 1.93 | 23.7 | 6426 | inactive
CG33523 | DRSC22155 | 2.24 | 27.4 | 6642 | inactive
yellow-g | DRSC08575 | 3.06 | 0.62 | 6138 | inactive
PCNA2 (Proliferating cell nuclear antigen 2) | DRSC02030 | 7.44 | 9.6 | 1801 | inactive
Scp2 (Sarcoplasmic calcium-binding protein 2) | DRSC13166 | 1.99 | 3.91 | 6391 | inactive
Scp2 (Sarcoplasmic calcium-binding protein 2) | DRSC16854 | 3.15 | 2.58 | 6441 | inactive
Rab35 | DRSC20691 | 0.93 | 1.28 | 6331 | inactive
Rab35 | DRSC26739 | 13.4 | 19.4 | 4996 | inactive
Efa6 (Exchange factor for Arf 6) | DRSC13569 | 0.49 | 0.83 | 6597 | inactive
Efa6 (Exchange factor for Arf 6) | DRSC16141 | – | – | 398 | inactive
Efa6 (Exchange factor for Arf 6) | DRSC29705 | 22.8 | 12.3 | 5516 | inactive
CtsK2 (Cathepsin K2) | DRSC06897 | 3.63 | 10.7 | 6828 | inactive
CtsK2 (Cathepsin K2) | DRSC25927 | 5.34 | 3.34 | 5691 | inactive
Sox14 (Sox box protein 14) | DRSC04656 | 15.3 | 9.35 | 5934 | inactive
Sox14 (Sox box protein 14) | DRSC27025 | 0.91 | 1.31 | 5916 | inactive
CG30148 | DRSC06391 | 3.46 | 12.2 | 6326 | inactive
Ehbp1 (Eps15 homology domain containing protein-binding protein 1) | DRSC06561 | 4.67 | 5.4 | 6275 | inactive
Ehbp1 (Eps15 homology domain containing protein-binding protein 1) | DRSC30006 | 12.5 | 6.52 | 6229 | inactive
Obp22a (Odorant-binding protein 22a) | DRSC00088 | 5.59 | 5.69 | 6080 | inactive
VGAT (Vesicular GABA Transporter) | DRSC07160 | 5.38 | 3.86 | 7120 | inactive
